A mixed list of measured activities; the numbers were collected in NIAID ChemDB.

Common to all: toxicity to cultured cells; read-out: CC50

An empty or dashed field is not shown. Lines come from different laboratories, so protocols vary. CCn is the concentration with n% toxicity to the cells.

smiles,cell line,read by,conditions,value
CC(C)N(Cc1cccc(OCCCCCC(=O)OC(=O)O)c1)C(=O)c1ccc(-c2ccc3[nH]ccc3c2)cc1,RAJI,-,-,>20 µM
Oc1[nH]c2ccccc2c1N=NC(=S)N1CCCCC1,hRD,-,-,>25 µM
O=C(OCc1ccccc1)N1OCCC1n1cc(COCc2cn(CCO)nn2)c(=O)[nH]c1=O,CEM-GFP,MTS,-,427 µM
CCOC(=O)/C=C/[C@H](Cc1ccccc1)NC(=O)[C@H](CC(C)C)NC(=O)OCc1ccccc1,HeLa cells,cell count,-,346 µM
Cc1noc(C2(NC(=O)c3c(C)c(C(=O)C(=O)Nc4cccnc4)n(C)c3C)CC2)n1,HepG2,MTT,-,>30 µM
CCOC(=O)c1c(CSc2ccccc2)n(C)c2cc(Br)c(O)c(CN(C)C)c12,HepAD38,absorbance,5 d,>10 µM
COc1ccc(NC(=S)N=Nc2c(O)[nH]c3ccccc23)cc1,hRD,-,-,>25 µM
CC(C)N(Cc1cccc(OCCCCCC(=O)OC(=O)O)c1)C(=O)c1ccc(-c2ccc3c(c2)OCCO3)cc1,RAJI,-,-,>20 µM
Brc1ccc(Cn2ccc3nc(-c4ccccc4Br)nc-3c2)cc1,MDBK,-,-,>100 µg/mL
COC(=O)N[C@H](C(=O)NC1(CCC[C@@H](CO)N(CCC(C)C)S(=O)(=O)c2ccc(N)cc2)CCCC1)C(c1ccccc1)c1ccccc1,T lymphoid cells,microscopy,-,>10 µM
COc1ccc(-c2cc3c(-c4ccnc(NC5CCCC5)n4)ccc(NC4CCCC4)n3n2)cc1,VERO 76,-,-,>100 µM
CN1C=CN(c2cccc(N3C=CN(C)C3)n2)C1.[Cl][Au].[Cl][Au],4T1,sulforhodamine / absorbance,-,>30 µM
CCCN([C@H](CO)CCC[C@@H](NC(=O)[C@@H](NC(=O)OC)C(c1ccccc1)c1ccccc1)C(F)(F)F)S(=O)(=O)c1ccc(N)cc1,T lymphoid cells,microscopy,-,>10 µM
c1ccc(-c2nc3ccn(Cc4cccc5ccccc45)cc-3n2)cc1,MDBK,-,-,>100 µg/mL
CN(C)c1nccc(-c2c(-c3ccc(F)cc3)nn3c(NC4CCCC4)cccc23)n1,VERO 76,-,-,>40 µM
O=C(N=Nc1c(O)[nH]c2ccccc12)Nc1ccccc1,hRD,-,-,>25 µM
Cc1cc(NC(=O)c2c(C3CC3)c(C(=O)C(=O)NC3CCN(c4cccnn4)CC3)n(C)c2C)ccc1F,HepG2,MTT,-,>30 µM
COc1ccccc1NC(=S)N=Nc1c(O)[nH]c2ccccc12,hRD,-,-,>25 µM
c1ccc(CCCn2ccc3nc(-c4ccccc4)nc-3c2)cc1,MDBK,-,-,56 µg/mL
Fc1ccc(-c2nn3c(NC4CCCC4)cccc3c2-c2ccnc(NCCCN3CCOCC3)n2)cc1,VERO 76,-,-,15 µM
Cc1cc(NC(=O)c2c(C)c(C(=O)C(=O)NC3CCC(O)CC3)n(C)c2-c2cccnc2)ccc1F,HepG2,MTT,-,>30 µM
CCOC(=O)CCCCCOc1cccc(CN(C(=O)c2ccc(-c3cnc(OC)nc3OC)cc2)C(C)C)c1,BJ,-,-,>20 µM
CCCCCC1(CCCCC)Cc2c(cc(C(C)(C)C)c(O)c2C(C)(C)C)O1,FLR3-1 cells,-,-,1000 µM
CC(=O)N[C@@H](CSC(=O)[C@]1([C@@H](O)CC(C)C)NC(=O)[C@H](C)[C@@H]1O)C(=O)O,HELF,-,-,57 µM
O=C(O)c1cc(-c2cccs2)nc2ccccc12,BJ,-,-,>20 µM
O=C(NCc1ccc(Cl)cc1)c1c[nH]c2ccc(CCCO)cc2c1=O,REF,-,-,>100 µM
CCOC(=O)COc1ccc(CN(C(=O)c2ccc(-c3ccc4c(c3)OCO4)cc2)C(C)C)cc1,HEK 293,-,-,>20 µM
CCCCNc1cccc2c(-c3ccnc(N4CCCC4)n3)c(-c3ccc(F)cc3)nn12,VERO 76,-,-,>160 µM
C[C@@H]1[C@H](O)c2c(c3c(c4c(-c5ccccc5)cc(=O)oc24)OC(C)(C)C=C3)O[C@@H]1C,HOG.R5,-,-,49.5 µM
CCCN([C@H](CO)CCC[C@H](C)NC(=O)[C@@H](NC(=O)OC)C(c1ccccc1)c1ccccc1)S(=O)(=O)c1ccc(N)cc1,T lymphoid cells,microscopy,-,>10 µM
Cc1cc(NC(=O)c2c(C)c(C(=O)C(=O)NC3CCC(O)CC3)n(C)c2C(C)C)ccc1F,HepG2,MTT,-,>30 µM
COc1ccc(Nc2nccc(-c3c(-c4ccc(F)cc4)nn4c(NC5CCCC5)cccc34)n2)cc1,VERO 76,-,-,>40 µM
CC(=O)O[C@@H]1[C@H](C)[C@@H](C)O[C@@]2([C@@H]1C)[C@@H](C)C=C(C)C(=O)[C@@H]2C,HL-60 cells,MTT,-,>100 µM
CC[C@@H](CCC[C@@H](CO)N(CCC(C)C)S(=O)(=O)c1ccc(CO)cc1)NC(=O)[C@@H](NC(=O)OC)C(c1ccccc1)c1ccccc1,T lymphoid cells,microscopy,-,>10 µM
CC(C)=CCc1c(O)cc2oc3ccc4c(c3c(=O)c2c1O)C=CC(C)(C)O4,HOG.R5,-,-,15.8 µM
FC(F)(F)c1ccc(Cn2ccc3nc(-c4ccccc4)nc-3c2)cc1,MDBK,-,-,13 µg/mL
Fc1ccc(-c2cc3c(-c4ccnc(NC5CCCC5)n4)ccc(NC4CCC4)n3n2)cc1,VERO 76,-,-,>40 µM
Cc1cc(NC(=O)c2c(C)c(C(=O)C(=O)NCC(C)(C)O)n(C)c2-c2ccncc2)ccc1F,HepG2,MTT,-,>30 µM
CCOC(=O)CC(=O)NCCc1ccc(OC)c(OC)c1,RAJI,-,-,<7.5 µM
Cc1cc(NC(=O)c2c(C)c(C(=O)C(=O)N[C@@H]3CC[C@@H](O)C[C@@H]3F)n(C)c2C)ccc1F,HepG2,MTT,-,>30 µM
COc1cccc2c1C(=O)c1ccc3cc(C)cc(O)c3c1C2=O,NCI-H187,resazurin,-,5.5 µM
Cc1cc(NC(=O)c2c(C)c(C(=O)C(=O)N[C@H]3[C@@H]4CC[C@@H](C4)[C@H]3CO)n(C)c2C)ccc1F,HepG2,MTT,-,>30 µM
CC1CC(=O)c2c(ccc3c2C(=O)c2cccc(O)c2C3=O)C1,NCI-H187,resazurin,-,30.3 µM
c1cc(OCC2CC2)cc(-c2cc3c(-c4ccnc(NC5CCCC5)n4)ccc(NC4CCCC4)n3n2)c1,VERO 76,-,-,>40 µM
CCCN(Cc1cccc(OCCCCCC(=O)O)c1)C(=O)c1ccc(-c2ccc3c(c2)OCO3)cc1,BJ,-,-,>20 µM
Cn1c(O)c(N=NC(=S)Nc2ccccc2)c2ccccc21,hRD,-,-,>25 µM
Fc1ccc(-c2nn3c(N4CCCCC4)cccc3c2-c2ccnc(NC3CCCC3)n2)cc1,VERO 76,-,-,>40 µM
Brc1ccc(Cn2ccc3nc(-c4cccc(I)c4)nc-3c2)cc1,MDBK,-,-,4.3 µg/mL
COc1ccc(CN2C3C4(CO)C(c5ccccc5)C5(CO)C2C2(CO)C(C6C=CC=CC6)C3(CO)C4N(Cc3ccc(OC)cc3)C52)cc1,EPG85-257DB,-,-,80 µM
Oc1[nH]c2ccccc2c1N=NC(=S)Nc1ccc(Cl)cc1,hRD,-,-,>25 µM
CCOC(=O)/C=C/[C@H](Cc1ccccc1)NC(=O)[C@H](CC(C)C)NC(=O)OC(C)(C)C,HeLa cells,cell count,-,203 µM
CCCCNc1nccc(-c2c(-c3ccc(F)cc3)nn3c(N(C)C)cccc23)n1,VERO 76,-,-,>40 µM
CN(C)C(=O)/C=C/[C@H](Cc1ccccc1)NC(=O)[C@H](Cc1ccccc1)NC(=O)OCc1ccccc1,HeLa cells,cell count,-,210 µM
Fc1cccc(-c2nc3ccn(Cc4ccc(F)cc4F)cc-3n2)c1,MDBK,-,-,20 µg/mL
c1ccc(Oc2ccc(-c3cc4c(-c5ccnc(NC6CCCC6)n5)ccc(NC5CCCC5)n4n3)cc2)cc1,VERO 76,-,-,>40 µM
Oc1[nH]c2ccccc2c1N=NC(=S)Nc1ccccc1,hRD,-,-,>25 µM
CC[C@@H](CCC[C@@H](CO)N(CCC(C)C)S(=O)(=O)c1ccc(N)cc1)NC(=O)[C@@H](NC(=O)OC)C(c1ccccc1)c1ccccc1,T lymphoid cells,microscopy,-,>10 µM
c1ccc(-c2ccc(Cn3ccc4nc(-c5ccccc5)nc-4c3)cc2)cc1,MDBK,-,-,>46 µg/mL

For reference, 5 entries again:

smiles	cell line	read by	conditions	value
C[C@@H]1[C@H](O)c2c(c3c(c4c(-c5ccccc5)cc(=O)oc24)OC(C)(C)C=C3)O[C@@H]1C	HOG.R5	-	-	49.5 µM
Cc1cc(NC(=O)c2c(C)c(C(=O)C(=O)N[C@H]3[C@@H]4CC[C@@H](C4)[C@H]3CO)n(C)c2C)ccc1F	HepG2	MTT	-	>30 µM
O=C(OCc1ccccc1)N1OCCC1n1cc(COCc2cn(CCO)nn2)c(=O)[nH]c1=O	CEM-GFP	MTS	-	427 µM
CCOC(=O)/C=C/[C@H](Cc1ccccc1)NC(=O)[C@H](CC(C)C)NC(=O)OCc1ccccc1	HeLa cells	cell count	-	346 µM
CCCCNc1nccc(-c2c(-c3ccc(F)cc3)nn3c(N(C)C)cccc23)n1	VERO 76	-	-	>40 µM